PubChem BioAssay AID1259414, Drosophila RNAi Screening Center | 2018
In all, the deposit lists about 24,000 reagents; this is a random part of those that have a named target and a result. Of all reagents, about 1,210 (5%) were called active. 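Inactive calls also include excluded dsRNAs with several or no targets, genes unexpressed in JW18, and well A1, regardless of score.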 Unmarked entries are inactive. Names joined by + are all predicted targets of the reagent.

- Aim: 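Fly genes that alter Wolbachia amount inside host cells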 (primary screen)
- Cell system: Drosophila JW18 cells infected with Wolbachia
- Reagents: long dsRNA against Drosophila genes, 0.25 µg dsRNA per well of a 384-well plate
- Time to read-out: 5 days
- Challenge: cells persistently infected with Wolbachia before knock-down; no added drug
- Read-out: 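Imaged fluorescence in situ signal for Wolbachia 23S rRNA per DAPI-counted host cell, given as a robust z-score within each plate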
- Reading the numbers: Wolbachia per cell robust z: higher = more Wolbachia per host cell than the plate typical
- Rule for the call: 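Hit when robust z is 1.5 or more, or -1.5 or less, in at least two of three replicates; excludes dsRNAs with several or no targets, genes not expressed in JW18 and well A1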

gene knocked down | amplicon | Wolbachia per cell robust z, rep 1 | Wolbachia per cell robust z, rep 2 | Wolbachia per cell robust z, rep 3
CG9270 | DRSC03182 | -0.364 | -0.464 | 1.12
CG5334 | DRSC19941 | -0.0463 | -0.507 | -0.581
l(2)37Cb (lethal (2) 37Cb) | DRSC02095 | -4.94 (active) | -1.43 | -8
l(2)37Cb (lethal (2) 37Cb) | DRSC24383 | -1.64 (active) | -8.53 | -13
CG12096 | DRSC21692 | -0.981 | -1.13 | -1.1
CG12096 | DRSC27886 | 0.433 | 1.85 | 1.36
CG7966 | DRSC16356 | -1.03 | -0.297 | -0.209
CG13601 | DRSC14604 | -0.751 | -0.361 | 0.315
ssp6 (short spindle 6) | DRSC08791 | 0.102 | -0.177 | -2.44
ssp6 (short spindle 6) | DRSC10677 | 0.556 | 0.0511 | 0.281
ssp6 (short spindle 6) | DRSC27709 | 0.446 | 1.7 | 0.462
CG11069 | DRSC14289 | -1.57 | -0.129 | -0.344
Gr32a (Gustatory receptor 32a) | DRSC02400 | -0.852 | -0.0152 | -6.54
Myo31DF (Myosin 31DF) | DRSC03376 | -8.6 (active) | -4.09 | 0.221
Myo31DF (Myosin 31DF) | DRSC22702 | -3.4 (active) | -1.51 | -0.762
Myo31DF (Myosin 31DF) | DRSC25363 | -0.706 | 1.42 | 0.352
Cp7Fc (Chorion protein c at 7F) | DRSC18035 | 0.679 | 0.0972 | -0.694
Cp7Fc (Chorion protein c at 7F) | DRSC27432 | 0.96 | -0.412 | 1.04
CG10657 | DRSC09768 | -7.58 | 0.00208 | -1.91
CG10657 | DRSC27483 | -0.668 | -0.642 | -0.899
Ho (Heme oxygenase) | DRSC14939 | -0.813 | 0.0509 | -1.23
CG7025 | DRSC03002 | -0.0141 | 0.163 | -1.92
Cap-D3 (Chromosome associated protein D3) | DRSC02349 | -0.913 | -0.226 | 0.259
Cap-D3 (Chromosome associated protein D3) | DRSC27018 | -0.997 | 0.319 | -0.114
LSm7 (Like Sm 7) | DRSC02251 | 1.72 | 0.674 | -4.74
CG11741 | DRSC14367 | -0.513 | -0.637 | 0.316
shf (shifted) | DRSC18283 | 0.314 | -1.36 | -0.355
shf (shifted) | DRSC24224 | -0.0669 | 2.41 | -0.25
shf (shifted) | DRSC38947 | 0.963 | 1.25 | 1.55
GckIII (Germinal centre kinase III) | DRSC15729 | -0.978 | -0.269 | -0.585
CR40639 (retired record) | DRSC40623 | 0.552 | 0.698 | -1.44
Nxf3 (Nuclear export factor 3) | DRSC21749 | -1.52 | -1.39 | -0.0446
CG15152 | DRSC02453 | 1.22 | -0.0577 | -0.308
CG31948 | DRSC00740 | -0.398 | -1.16 | 0.293
CG32462 + asRNA:CR43426 | DRSC11851 | 0.879 | 0.263 | -2.3
CG11164 | DRSC19392 | 0.545 | 0.926 | 0.656
CG33475 | DRSC22943 | 0.681 | -0.215 | 0.662
CG5888 | DRSC01929 | 0.556 | 1.36 | 0.665
CG5888 | DRSC28190 | 1.55 | 0.923 | 0.641
CG9391 | DRSC11858 | -0.493 | 0.353 | -2.09
Dbx | DRSC08271 | 1.03 | -0.139 | 0.228
Dbx | DRSC08394 | 0.108 | -0.653 | 0.144
Dbx | DRSC25311 | 0.0311 | 0.349 | -0.126
Dbx | DRSC29604 | -1.36 | 0.257 | -1.26
Dbx | DRSC39044 | -0.000528 | -0.818 | 0.406
sol (small optic lobes) | DRSC20587 | 0.185 | 0.304 | -0.226
sol (small optic lobes) | DRSC26252 | 1.1 | 1.35 | 0.698
CG13527 | DRSC04169 | -6.09 | -3.03 | 0.0594
Vsx1 (Visual system homeobox 1) | DRSC23004 | 0.349 | -0.044 | 1.1
Vsx1 (Visual system homeobox 1) | DRSC25808 | -1.96 | 1.1 | -0.511
CG10809 | DRSC09802 | -3.58 | -0.111 | -1.3
CG10809 | DRSC29041 | -0.778 | 0.0719 | 0.485
CG15717 | DRSC19684 | -1.02 | 0.0529 | -1.22
Ldaf1 (Lipid droplet assembly factor 1) | DRSC17963 | 1.11 | 0.133 | 0.0603
Ldaf1 (Lipid droplet assembly factor 1) | DRSC25860 | -2.69 | -1.01 | 1.09
beta4GalNAcTA (beta1,4-N-acetylgalactosaminyltransferase A) | DRSC05944 | 0.693 | 0.814 | 0.63
CG9294 | DRSC04537 | -1.6 | -0.663 | -0.978
E(Pc) (Enhancer of Polycomb) | DRSC05281 | 0.206 | 0.93 | 1.16
E(Pc) (Enhancer of Polycomb) | DRSC07408 | 2.41 (active) | 2.53 | 1.63
Ziz (Zizimin) | DRSC02506 | -0.909 | -0.0759 | 0.485
Ziz (Zizimin) | DRSC02976 | 0.117 | 0.727 | -0.0531
GluRS-m (Glutamyl-tRNA synthetase, mitochondrial) | DRSC10431 | -0.133 | 0.274 | -0.7
GluRS-m (Glutamyl-tRNA synthetase, mitochondrial) | DRSC26953 | 0.188 | -0.891 | 0.292
CG42326 | DRSC06483 | 0.853 | -2.02 | 0.476
CG42326 | DRSC06484 | 0.32 | 0.0439 | 0.59
CG42326 | DRSC24293 | -0.731 | -0.329 | 1.42
CG1582 | DRSC19732 | -0.881 (active) | -7.18 | -1.5
Rab6 | DRSC03404 | -1.27 | -0.25 | -0.362
Rab6 | DRSC25636 | 0.0147 | -0.0198 | -1.98
Hsc70-5 (Heat shock protein 70 cognate 5) | DRSC07442 | 0.847 | -3.58 | 2.43
Hsc70-5 (Heat shock protein 70 cognate 5) | DRSC24015 | -0.183 | 0.339 | -0.0504
lic (licorne) | DRSC20347 | -5.32 (active) | -8.62 | 0.48
lic (licorne) | DRSC36705 | -1.74 | -1.04 | -1.52
CG7910 | DRSC16341 | -0.797 | 0.297 | -4.02
CG34338 | DRSC38801 | 0.688 | 0.254 | 0.719
Sumo (Small ubiquitin like modifier) | DRSC03611 | -5.41 (active) | 3.43 | 4.24
CG11298 | DRSC04100 | -0.613 | -4.42 | -3.88
CG15408 | DRSC00423 | 0.699 | -0.177 | 0.746
CG17329 | DRSC01926 | 0.0279 | -2.3 | -0.677
CG17329 | DRSC28365 | 1.14 | 0.836 | 0.794
CG30010 | DRSC05193 | -0.0448 | -0.243 | 0.0167
Cox10 (Cytochrome c oxidase assembly factor 10) | DRSC02804 | 0.193 | -0.57 | -0.213
ush (u-shaped) | DRSC00843 | 0.726 | 0.837 | 0.147
ush (u-shaped) | DRSC26524 | 1.17 | 1.28 | 1.23
CG42495 | DRSC40603 | 0.769 | 0.243 | 0.359
sinah (sina homologue) | DRSC09910 | -2.56 | -0.144 | -1.85
sinah (sina homologue) | DRSC22181 | 0.535 | -0.709 | -1.36

8 entries from above in another layout:
CG17329 [DRSC01926] | Wolbachia per cell robust z, rep 1: 0.0279; Wolbachia per cell robust z, rep 2: -2.3; Wolbachia per cell robust z, rep 3: -0.677
CG17329 [DRSC28365] | Wolbachia per cell robust z, rep 1: 1.14; Wolbachia per cell robust z, rep 2: 0.836; Wolbachia per cell robust z, rep 3: 0.794
CG30010 [DRSC05193] | Wolbachia per cell robust z, rep 1: -0.0448; Wolbachia per cell robust z, rep 2: -0.243; Wolbachia per cell robust z, rep 3: 0.0167
Cox10 (Cytochrome c oxidase assembly factor 10) [DRSC02804] | Wolbachia per cell robust z, rep 1: 0.193; Wolbachia per cell robust z, rep 2: -0.57; Wolbachia per cell robust z, rep 3: -0.213
ush (u-shaped) [DRSC00843] | Wolbachia per cell robust z, rep 1: 0.726; Wolbachia per cell robust z, rep 2: 0.837; Wolbachia per cell robust z, rep 3: 0.147
ush (u-shaped) [DRSC26524] | Wolbachia per cell robust z, rep 1: 1.17; Wolbachia per cell robust z, rep 2: 1.28; Wolbachia per cell robust z, rep 3: 1.23
CG42495 [DRSC40603] | Wolbachia per cell robust z, rep 1: 0.769; Wolbachia per cell robust z, rep 2: 0.243; Wolbachia per cell robust z, rep 3: 0.359
sinah (sina homologue) [DRSC09910] | Wolbachia per cell robust z, rep 1: -2.56; Wolbachia per cell robust z, rep 2: -0.144; Wolbachia per cell robust z, rep 3: -1.85
